## Genome-wide point mutation profile of HIV-1: Gag

Protein: Gag of HIV-1 NL4-3, numbered from its first residue. Gag is numbered as the whole polyprotein.
"Other frame" gives the effect on an overlapping gene as the source lists it; other overlaps (genes, RNA elements) are not shown.

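Seven fragments of pNL4-3 were mutated by error-prone PCR, and each virus pool was passaged in CEM T cells. Sequencing gave the RC index: frequency after two rounds over frequency in the input plasmid.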

Values are the RC index; higher means better tolerated. The authors read about 0.1 or less as lethal, 0.1-0.2 as attenuated and 0.2 or more as tolerated.
A change reads original residue, position, new residue.

change	base	region	other frame	RC index
Y29H	T874C	MA	none	0.108
A237T	G1498A	CA	none	0.143
A237S	G1498T	CA	none	0.0494
S241N	G1511A	CA	none	0.0568
T70S	A997T	MA	none	0.0310
Q136P	A1196C	CA	none	0.0627
N131S	A1181G	MA	none	0.0291
K26E	A865G	MA	none	0.143
N432K	T2085G	NC p7	none	0.168
K415N	A2034T	NC p7	none	0.0352
K18E	A841G	MA	none	0.0475
A360E	C1868A	CA	none	0.0276
A45S	G922T	MA	none	0.108
I19T	T845C	MA	none	0.0598
W438R	T2101A	p1	none	0.0394
H219Q	T1446A	CA	none	0.0353
M276V	A1615G	CA	none	0.0518
K32I	A884T	MA	none	0.0603
G396V	G1976T	NC p7	none	0.0552
W16S	G836C	MA	none	0.0530
I247V	A1528G	CA	none	0.157
Q65P	A983C	MA	none	0.0688
L8F	A813T	MA	none	0.0548
L13I	T826A	MA	none	0.0366
G354W	G1849T	CA	none	0.0526
A146S	G1225T	CA	none	0.0276
H441L	A2111T	p1 / p6*	p6* silent	0.0512
A197S	G1378T	CA	none	0.0595
H219P	A1445C	CA	none	0.0294
R22G	A853G	MA	none	0.206
E319V	A1745T	CA	none	0.0431
D295E	C1674A	CA	none	0.126
N372D	A1903G	p2	none	0.0232
S281I	G1631T	CA	none	0.0357
M423K	T2057A	NC p7	none	0.0522
N447D	A2128G	p1 / p6*	p6* E7G	0.0262
L188Q	T1352A	CA	none	0.0399
D102G	A1094G	MA	none	0.0194
K113I	A1127T	MA	none	0.0306
S129R	C1176A	MA	none	0.0213
K263E	A1576G	CA	none	0.0886
S54L	C950T	MA	none	0.251
F44S	T920C	MA	none	0.0622
N382S	A1934G	NC p7	none	0.239
L50H	T938A	MA	none	0.0326
L268P	T1592C	CA	none	0.159
E40K	G907A	MA	none	0.0790
S129T	G1175C	MA	none	0.0634
H252Y	C1543T	CA	none	0.107
I134M	A1191G	CA	none	0.0460
R286K	G1646A	CA	none	0.215
Q422R	A2054G	NC p7	none	0.0561
T122A	A1153G	MA	none	0.0427
E203V	A1397T	CA	none	0.0662
W265G	T1582G	CA	none	0.176
G338R	G1801A	CA	none	0.319
R91S	G1062C	MA	none	0.0235
T280N	C1628A	CA	none	0.119
E428V	A2072T	NC p7	none	0.0244
M250T	T1538C	CA	none	0.0691
D213H	G1426C	CA	none	0.0804
T204N	C1400A	CA	none	0.0646
L215M	T1432A	CA	none	0.0590
Q59H	A966T	MA	none	0.0386
P225L	C1463T	CA	none	0.163
D284N	G1639A	CA	none	0.142
G192R	G1363A	CA	none	0.109
N394K	T1971A	NC p7	none	0.0736
N137K	C1200G	CA	none	0.0275
N131H	A1180C	MA	none	0.0285
R305K	G1703A	CA	none	0.448
N385S	A1943G	NC p7	none	0.00767
Q108L	A1112T	MA	none	0.0454
V362L	G1873C	CA	none	0.199
K103T	A1097C	MA	none	0.0225
H33N	C886A	MA	none	0.213
A366S	G1885T	p2	none	0.0536
A146D	C1226A	CA	none	0.0354
H441Y	C2110T	p1 / p6*	p6* P1L	0.0561
P48L	C932T	MA	none	0.0702
K95T	A1073C	MA	none	0.165
S111R	T1122A	MA	none	0.104
F383L	T1936C	NC p7	none	0.127
W249G	T1534G	CA	none	0.102
R39M	G905T	MA	none	0.0763
E99G	A1085G	MA	none	0.0576
H358R	A1862G	CA	none	0.00866
V168L	G1291C	CA	none	0.0341
I169T	T1295C	CA	none	0.0511
P255H	C1553A	CA	none	0.155
N80S	A1028G	MA	none	0.0288
D14V	A830T	MA	none	0.0398
L138R	T1202G	CA	none	0.0666
G288E	G1652A	CA	none	0.198
S67P	T988C	MA	none	0.181
T81S	A1030T	MA	none	0.0249
V168I	G1291A	CA	none	0.138
Q141K	C1210A	CA	none	0.132
V274A	T1610C	CA	none	0.0727
E312K	G1723A	CA	none	0.105
D298V	A1682T	CA	none	0.0612
I333T	T1787C	CA	none	0.0673
G221E	G1451A	CA	none	0.177
F383S	T1937C	NC p7	none	0.0487
K388T	A1952C	NC p7	none	0.110
Q145K	C1222A	CA	none	0.321
Q141L	A1211T	CA	none	0.0252
T151A	A1240G	CA	none	0.0486
G446V	G2126T	p1 / p6*	p6* R6S	0.0731
Q108H	A1113T	MA	none	0.0432
K26M	A866T	MA	none	0.0396
Q145P	A1223C	CA	none	0.0627
N124D	A1159G	MA	none	0.0298
D284G	A1640G	CA	none	0.119
T151P	A1240C	CA	none	0.0686
L343Q	T1817A	CA	none	0.0122
I376V	A1915G	p2	none	0.0353
K110N	A1119T	MA	none	0.0429
E230V	A1478T	CA	none	0.0535
G192E	G1364A	CA	none	0.127
G238E	G1502A	CA	none	0.250
T240I	C1508T	CA	none	0.0588
Y79F	A1025T	MA	none	0.0249
G140A	G1208C	CA	none	0.0448
P328S	C1771T	CA	none	0.106
R361S	A1872T	CA	none	0.0116
Q139H	G1206C	CA	none	0.0666
C416Y	G2036A	NC p7	none	0.392

The first 14 entries again:

- Y29H (base T874C, region MA) -> 0.108
- A237T (base G1498A, region CA) -> 0.143
- A237S (base G1498T, region CA) -> 0.0494
- S241N (base G1511A, region CA) -> 0.0568
- T70S (base A997T, region MA) -> 0.0310
- Q136P (base A1196C, region CA) -> 0.0627
- N131S (base A1181G, region MA) -> 0.0291
- K26E (base A865G, region MA) -> 0.143
- N432K (base T2085G, region NC p7) -> 0.168
- K415N (base A2034T, region NC p7) -> 0.0352
- K18E (base A841G, region MA) -> 0.0475
- A360E (base C1868A, region CA) -> 0.0276
- A45S (base G922T, region MA) -> 0.108
- I19T (base T845C, region MA) -> 0.0598

An index over 1, which the authors read as above wild type, was rare (1.9% of all changes in the genome).
Since each clone held several changes (about five per kb), neutral changes can read low.
Nucleotide positions follow pNL4-3.

Reference: Al-Mawsawi et al. 2014, doi:10.1186/s12977-014-0124-6.